{"source": "ChEMBL document CHEMBL4495565", "about": "“Cytopathic SARS-Cov2 screening on VERO-E6 cells in a large repurposing effort” (2020)", "tested_on": "SARS-CoV-2", "assay": "Antiviral activity determined as inhibition of SARS-CoV-2 induced cytotoxicity of VERO-6 cells at 10 uM after 48 hours exposure to 0.01 MOI SARS CoV-2 virus by high content imaging", "conditions": "Chlorocebus sabaeus, Vero C1008", "data": [{"smiles": "CN(C)CCS", "values": [{"measurement": "inhibition", "result": 0.09, "unit": "%"}]}]}
